Pooled drug test results. Numbers come from NIAID ChemDB, via PubChem.

Shared fields: whole-cell or culture tests; agent: HIV-1

ECn is the concentration giving n% inhibition of infection, replication or growth.

| smiles | read-out | cell line | conditions | changes | read by | strain or isolate | value |
|---|---|---|---|---|---|---|---|
| Fc1cccc(F)c1C1SCc2nc3ccccc3n21 | EC50 | CEM |  | RT-L100I | cytopathic effect / MTT | IIIB | 3.12 µM |
| Cc1cccc(Cl)c1-n1nnnc1SCC(=O)Nc1ccccc1Cl | EC95 | MT-4 |  |  | p24 |  | <10 µM |
| CC(C)c1s/c(=N\S(=O)(=O)c2cccc([N+](=O)[O-])c2)n(C)c1C#N | EC50 | MT-4 |  |  | cytopathic effect / MTT | IIIB | 0.71 µM |
| CCCCCOC(=O)C[C@H](NP(=O)(CO[C@@H](CF)Cn1ccc2c(=O)[nH]c(N)nc21)N[C@@H](CC(=O)OCCCCC)C(=O)OCCCCC)C(=O)OCCCCC | EC50 | PBMC |  |  | luciferase | NL4-3 | 1.81 µM |
| CCc1cc(NCc2nc3c(Cl)ccc(Cl)c3o2)c(=O)[nH]c1C | EC50 | MT-4 |  | RT-K103N Y181C | p24 | NL4-3 | >3 µM |
| Cc1cc(C)c(-n2nnnc2SCC(=O)Nc2ccccc2I)c(C)c1 | EC95 | MT-4 |  |  | p24 |  | <10 µM |
| COc1cc(OC)c2ccc(=O)oc2c1OC | EC50 | H9 |  |  | p24 | IIIB | 0.933 µg/mL |
| Cc1cc(NS(=O)(=O)c2c(C(C)C)cc(C(C)C)cc2C(C)C)ccc1N1C(=O)c2ccc(Cl)cc2C1=O | EC50 | MT-4 |  |  | MTT / absorbance | IIIB | 0.005 µM |
| CC(C)CN(C[C@@H](O)[C@H](Cc1ccccc1)NC(=O)[C@@H](NC(=O)CNCc1cccc(F)c1)C(C)(C)C)S(=O)(=O)c1cccc(N)c1 | EC50 | MT-2 |  |  | virus yield | RF | <0.0041 µM |
| Cc1cc(C)c(-n2nnnc2SCC(=O)Nc2ccc(C(N)=O)cc2Cl)c(C)c1 | EC95 | MT-4 |  |  | p24 |  | <10 µM |
| CC(C)=CCc1c(O)cc(O)c2c1O[C@H](c1ccc(O)cc1)CC2=O | EC50 | MT-4 |  |  | cytopathic effect / MTT | IIIB | >200 µg/mL |
| COC(=O)[C@H](C)NP(=O)(OC[C@H]1O[C@@H](n2cc(C)c(=O)[nH]c2=O)C[C@@H]1N=[N+]=[N-])Oc1ccccc1 | EC50 | CEM + CEM TK- |  |  | RT activity | IIIB | 1.7–4.1 µM |
| Nc1ccn([C@H]2CC[C@@H](CO)O2)c(=O)n1 | EC50 | MT-4 |  |  | p24 | HXB2D | 0.45 µM |
| Cc1cc(C)c(-n2nnnc2SCC(=O)Nc2ccc(Cl)cc2F)c(C)c1 | EC95 | MT-4 |  |  | p24 |  | <10 µM |
| O=c1[nH]c(=O)n([C@H]2C=C[C@@H](CO)O2)cc1F | EC50 | PBMC |  |  | RT activity | LAI | 7.9 µM |
| Nc1ccn([C@H]2CC[C@@H](CO)O2)c(=O)n1 | EC50 | MT-4 |  |  | syncytia |  | 0.025 µM |
| Cc1cc(C)cc(S(=O)(=O)c2c(C(=O)NC(C)C(N)=O)[nH]c3ccc(Cl)cc23)c1 | EC50 | MT-4 |  | K103N | MTT |  | 0.014 µM |
| Cc1cc(NS(C)(=O)=O)ccc1N1C(=O)c2ccc(Cl)cc2C1=O | EC50 | MT-4 |  |  | MTT / absorbance | IIIB | 0.008 µM |
| Cc1cn([C@H]2C[C@H](N=[N+]=[N-])[C@@H](CO)O2)c(=O)[nH]c1=O | EC50 | MOLT4 + MOLT-4 |  |  | p24 / ELISA | IIIB | <0.001 µg/mL |
| Cc1cc(C)c(-n2nnnc2SCC(=O)Nc2ccccc2Cl)c(C)c1 | EC50 | MT-4 |  |  | p24 |  | <10 µM |
| Nc1ccn([C@H]2CC[C@@H](CO)O2)c(=O)n1 | EC50 | MT-4 |  |  | cytopathic effect / MTT | IIIB | 0.26 µg/mL |
| Nc1nc(=O)n([C@@H]2CS[C@H](CO)O2)cc1F | EC50 | TZM-gfp |  | A502V | GFP | NL4-3 | 0.44 µM |
| C[C@H](Cn1cnc2c(N)ncnc21)OCP(=O)(O)O | EC50 | PBMC |  |  | luciferase | BaL | 1.69 µM |
| Nc1ccn(C[C@@H](CO)OCP(=O)(O)O)c(=O)n1 | EC50 | MT-2 |  |  | cytopathic effect | IIIB | 1 µM |
| CC(C)(C)NC(=O)N(Cc1ccccc1)C[C@@H](O)[C@H](Cc1ccccc1)NC(=O)[C@H](CC(N)=O)NC(=O)c1ccc2ccccc2n1 | EC50 | CEM |  |  | cytopathic effect / MTT | IIIB | 0.021 µM |
| CC(C)CN(C[C@@H](O)[C@H](Cc1ccccc1)NC(=O)O[C@H]1CCOC1)S(=O)(=O)c1ccc(N)cc1 | EC50 | PBMC |  | PR-M46I L63P A71V V82F I84V | p24 | HXB2 | <1.33 µM |
| O=c1[nH]c(=O)n([C@@H]2C=C[C@@H](CO)O2)cc1F | EC90 | PBMC |  |  | RT activity | LAI | 23 µM |
| Cc1cn([C@H]2C[C@H](N=[N+]=[N-])[C@@H](COP(=O)(O)OC[C@H]3OC(O)[C@@H](O)[C@@H](O)[C@@H]3O)O2)c(=O)[nH]c1=O | EC50 | CEM | 7 d |  | RT activity | LAV-Bru | <0.2 µM |
| C=Cc1s/c(=N\S(=O)(=O)c2cccc([N+](=O)[O-])c2)n(C)c1C | EC50 | MT-4 |  |  | cytopathic effect / MTT | IIIB | 0.097 µM |
| N#Cc1cn(C[C@@H](CF)OCP(=O)(O)O)c2nc(N)[nH]c(=O)c12 | EC50 | PBMC |  |  | luciferase | NL4-3 | >100 µM |
| Cc1cn([C@H]2C[C@H](N=[N+]=[N-])[C@@H](COP(=O)(O)OC[C@H]3OC(O)[C@H](O)[C@@H](O)[C@@H]3O)O2)c(=O)[nH]c1=O | EC50 | U-937 | 14 d |  | RT activity | LAV-Bru | >25 µM |
| CC(C)=CCc1c(O)cc2c(c1O)C(=O)C[C@@H](c1ccc(O)cc1)O2 | EC50 | MT-4 |  |  | cytopathic effect / MTT | IIIB | >200 µg/mL |
| CC1(C)S[C@H]([C@H](NC(=O)Cc2ccccc2)C(=O)NCc2ccccc2)N[C@H]1C(=O)NCCNC(=O)[C@@H]1N[C@@H]([C@H](NC(=O)Cc2ccccc2)C(=O)NCc2ccccc2)SC1(C)C | EC50 | H9 |  |  | p24 | IIIB | 0.025 µM |
| O=C1C[C@@H](c2ccc(O)cc2)Oc2cc(O)cc(O)c21 | EC50 | MT-4 |  |  | cytopathic effect / MTT | IIIB | >200 µg/mL |
| CC(C)=CCC/C(C)=C/CC/C(C)=C/CC/C=C(\C)CC/C=C(\C)CCC=C(C)C | EC50 | H9 |  |  | p24 | IIIB | 0.744 µg/mL |
| CC(C)Nc1cccnc1N1CCN(C(=O)c2cc3cc(NS(C)(=O)=O)ccc3[nH]2)CC1 | EC50 | MT-4 |  |  | cytopathic effect / MTT | IIIB | 0.0039 µM |
| Nc1ccn([C@H]2CC[C@@H](CO)O2)c(=O)n1 | EC50 | MT-4 |  |  | RT activity | HXB2D | 0.44 µM |
| O=C(O)P(=O)(O)O | EC50 | HT4LACZ-1 + HT4 LacZ-1 |  | RT-W88S | syncytia | LAI viral clone (RT-W88S) | 105 µM |
| Cc1cc(C)c(-n2nnnc2SCC(=O)Nc2cccc(F)c2F)c(C)c1 | EC95 | MT-4 |  |  | p24 |  | <10 µM |
| Cc1cn([C@H]2C[C@H](N=[N+]=[N-])[C@@H](CO)O2)c(=O)[nH]c1=O | EC50 | MT-4 |  |  | cytopathic effect / MTT | IIIB | 0.04 µg/mL |
| O=C(CSc1nnnn1-c1cccc2ccccc12)Nc1ccc(Cl)cc1[N+](=O)[O-] | EC95 | MT-4 |  |  | p24 |  | <10 µM |
| N#Cc1cn(C[C@H](CF)OCP(=O)(O)O)c2nc(N)[nH]c(=O)c12 | EC50 | PBMC |  |  | luciferase | NL4-3 | >100 µM |
| CC(C)=CCc1c(O)cc(O)c2c1O[C@H](c1cc3c(cc1O)O[C@@H](c1ccc(O)cc1)[C@@H]3c1cc(O)cc(O)c1)CC2=O | EC50 | MT-4 |  |  | cytopathic effect / MTT | IIIB | 23 µg/mL |
| Cc1cc(N=Cc2ccccc2)ccc1N1C(=O)c2ccc(Cl)cc2C1=O | EC50 | MT-4 |  |  | MTT / absorbance | IIIB | 0.287 µM |
| COc1c(O)ccc2c1cnc1c3cc4c(cc3ccc21)OCO4 | EC50 | H9 |  |  | p24 | IIIB | <0.1 µg/mL |
| Cc1nc(NS(=O)(=O)c2cccc([N+](=O)[O-])c2)sc1C(C)(C)C | EC50 | MT-4 |  |  | cytopathic effect / MTT | IIIB | 0.5 µM |
| C[C@H](NC(=O)[C@H](CCCN=C(N)N)NC(=O)c1ccc(CNCc2ccccn2)cc1)c1cccc2ccccc12 | EC50 | PBMC |  |  | p24 | YU-10 X4 clinical isolate | 0.152 µM |
| CCCCCCCCCCCCCCCCOP(=O)(OC[C@H]1OC(O)[C@H](O)[C@@H](O)[C@@H]1O)OC[C@H]1O[C@@H](n2cc(C)c(=O)[nH]c2=O)C[C@@H]1N=[N+]=[N-] | EC50 | CEM | 7 d |  | RT activity | LAV-Bru | <0.2 µM |
| Cc1cn([C@H]2C[C@H](N=[N+]=[N-])[C@@H](CO)O2)c(=O)[nH]c1=O | EC50 | H9 |  |  | p24 | IIIB | <0.001 µg/mL |
| CCCc1c([Se]c2ccccc2)n(COCC)c(=O)[nH]c1=O | EC90 | MT-2 |  |  | p24 | Cat #3 strain | >1 µM |
| Nc1nc(=O)n([C@H]2C=C[C@@H](CO)O2)cc1Br | EC90 | PBMC |  |  | RT activity | LAI | >10 µM |
| CC(C)OC(=O)[C@H](C)N[P@](=O)(CO[C@H](C)Cn1cnc2c(N)ncnc21)Oc1ccccc1 | EC50 | PBMC |  |  | luciferase | NL4-3 | 0.0007 µM |
| CCc1c(C(=O)c2cc(C)cc(C)c2)n(CC2CC=CC2)c(=O)[nH]c1=O | EC50 | CEM + CEM-SS |  | RT-D67N K70R Y181C T215Y K219Q | cytopathic effect / XTT | 4XAZT/Y181C (RT D67N K70R Y181C T215Y K219Q) | 0.0003 µM |
| Cc1cc(C)c(-n2nnnc2SCC(=O)Nc2ccc(C)cc2Br)c(C)c1 | EC50 | MT-4 |  |  | p24 |  | <10 µM |
| Cc1cn([C@H]2C[C@H](N=[N+]=[N-])[C@@H](CO)O2)c(=O)[nH]c1=O | EC50 | CEM |  |  | cytopathic effect / MTT | IIIB | <0.005 µg/mL |
| Cc1cc(NC(=S)Cc2ccc3ccccc3c2)ccc1N1C(=O)c2ccc(Cl)cc2C1=O | EC50 | MT-4 |  |  | MTT / absorbance | IIIB | 0.097 µM |
| Nc1nc2c(c(F)cn2C[C@H](CF)OCP(=O)(O)O)c(=O)[nH]1 | EC50 | TZM-bl |  |  | luciferase | BaL | >100 µM |

Repeating the first 8 entries:

{"smiles": "Fc1cccc(F)c1C1SCc2nc3ccccc3n21", "read-out": "EC50", "cell line": "CEM", "changes": "RT-L100I", "read by": "cytopathic effect / MTT", "strain or isolate": "IIIB", "value": "3.12 µM"}
{"smiles": "Cc1cccc(Cl)c1-n1nnnc1SCC(=O)Nc1ccccc1Cl", "read-out": "EC95", "cell line": "MT-4", "read by": "p24", "value": "<10 µM"}
{"smiles": "CC(C)c1s/c(=N\\S(=O)(=O)c2cccc([N+](=O)[O-])c2)n(C)c1C#N", "read-out": "EC50", "cell line": "MT-4", "read by": "cytopathic effect / MTT", "strain or isolate": "IIIB", "value": "0.71 µM"}
{"smiles": "CCCCCOC(=O)C[C@H](NP(=O)(CO[C@@H](CF)Cn1ccc2c(=O)[nH]c(N)nc21)N[C@@H](CC(=O)OCCCCC)C(=O)OCCCCC)C(=O)OCCCCC", "read-out": "EC50", "cell line": "PBMC", "read by": "luciferase", "strain or isolate": "NL4-3", "value": "1.81 µM"}
{"smiles": "CCc1cc(NCc2nc3c(Cl)ccc(Cl)c3o2)c(=O)[nH]c1C", "read-out": "EC50", "cell line": "MT-4", "changes": "RT-K103N Y181C", "read by": "p24", "strain or isolate": "NL4-3", "value": ">3 µM"}
{"smiles": "Cc1cc(C)c(-n2nnnc2SCC(=O)Nc2ccccc2I)c(C)c1", "read-out": "EC95", "cell line": "MT-4", "read by": "p24", "value": "<10 µM"}
{"smiles": "COc1cc(OC)c2ccc(=O)oc2c1OC", "read-out": "EC50", "cell line": "H9", "read by": "p24", "strain or isolate": "IIIB", "value": "0.933 µg/mL"}
{"smiles": "Cc1cc(NS(=O)(=O)c2c(C(C)C)cc(C(C)C)cc2C(C)C)ccc1N1C(=O)c2ccc(Cl)cc2C1=O", "read-out": "EC50", "cell line": "MT-4", "read by": "MTT / absorbance", "strain or isolate": "IIIB", "value": "0.005 µM"}

An empty or dashed field is not shown. Conditions beyond the fields shown may differ between rows. a–b is a range or a potency band.